Construct, isoform or probe ends are uncertain for at least one entry. At least one result comes from cells or an extract, where the contact may be indirect. For some assays here: At least one verdict was read from the data and is not stated in words by the source. Where a protein sequence is shown, tags need not be part of it.
Key:
IRF2 [1] = molecular target: T1, IRF2 (UniProt P23906); assay: EMSA supershift; details: two anti-IRF2 antisera, complex not formed with IRF2-/- extract; 40 mM KCl, 20 mM HEPES pH 7.6, 1 mM MgCl2, 1 mM EGTA, 0.5 mM DTT, 0.32 mg/ml poly dI-dC, 0.02 mg/ml plasmid pGL4.10, 4 mM AMP, 5 ug extract in 12.5 ul; protein in an extract; label: 32P (unlabeled as competitor)
T1 sequence (looked up, limits assumed): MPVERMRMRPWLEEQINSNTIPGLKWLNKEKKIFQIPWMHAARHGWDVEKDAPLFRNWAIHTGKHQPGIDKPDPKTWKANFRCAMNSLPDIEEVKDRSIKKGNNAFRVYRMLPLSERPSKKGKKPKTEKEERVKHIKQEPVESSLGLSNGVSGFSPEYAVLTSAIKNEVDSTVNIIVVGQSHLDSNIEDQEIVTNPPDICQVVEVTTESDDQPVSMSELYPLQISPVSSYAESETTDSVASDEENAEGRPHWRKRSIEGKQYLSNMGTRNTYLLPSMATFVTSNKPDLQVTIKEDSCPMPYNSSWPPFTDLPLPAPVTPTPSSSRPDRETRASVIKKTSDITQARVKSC

IRF2 [2] = molecular target: T1, IRF2; assay: competition with a labelled probe; details: excess unlabeled M2 ISRE inhibits complex formation on labeled M2 ISRE; 40 mM KCl, 20 mM HEPES pH 7.6, 1 mM MgCl2, 1 mM EGTA, 0.5 mM DTT, 0.32 mg/ml poly dI-dC, 0.02 mg/ml plasmid pGL4.10, 4 mM AMP, 5 ug extract in 12.5 ul; protein in an extract; label: 32P (unlabeled as competitor)

Sequence: TTACCTGAAAACGAAACCTCATCA (double strand) [M2 ISRE]
- binding result (IRF2 [1]): binds
- binding result (IRF2 [2]): binds

— publication PMC3219715
